{
  "source": "paper PMC10983001",
  "about": "“Development of Cytotoxic GW7604-Zeise’s Salt Conjugates as Multitarget Compounds with Selectivity for Estrogen Receptor- Positive Tumor Cells” (Journal of Medicinal Chemistry, 2024)",
  "key": {"MCF-7 cells": {"tested_on": "MCF-7 cells", "assay": "Real-time live confocal microscopy, MCF-7", "type": "cell-based, human", "details": "MCF-7, 20 μM"}, "SKBr3 cells": {"tested_on": "SKBr3 cells", "assay": "Real-time live confocal microscopy, SKBr3", "type": "cell-based, human", "details": "SKBr3, 20 μM"}},
  "data": [
    {"smiles": "C=CCCCOC(=O)/C=C/c1ccc(C(=C(CC)c2ccccc2)c2ccc(O)cc2)cc1", "note": "(mixture of isomers) [GW7604-Pent, Pent-4-en-1-yl (E)-3-(4-((E/Z)-1-(4-hydroxyphenyl)-2-phenylbut-1-en-1-yl)phenyl) Acrylate]", "values": [
      {"measurement": "intracellular fluorescence / vesicles", "setting": "MCF-7 cells", "result": "did not cause compound-dependent intracellular fluorescence"},
      {"measurement": "intracellular fluorescence / vesicles", "setting": "SKBr3 cells", "result": "did not cause compound-dependent intracellular fluorescence"}
    ]}
  ]
}
